PubChem BioAssay AID1259414, Drosophila RNAi Screening Center | 2018
In all, the deposit lists about 24,000 reagents; below is an unselected part of those that have a named target and a result. Over the whole deposit, about 1,210 (5%) were called active. 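Inactive calls also include excluded dsRNAs with several or no targets, genes unexpressed in JW18, and well A1, regardless of score.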 Reagents against one gene are numbered here. A plus sign joins genes that one reagent is predicted to hit.

Test: 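Fly genes that alter Wolbachia amount inside host cells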 (primary screen)
Cell system: Drosophila JW18 cells infected with Wolbachia
Reagent: long dsRNA against Drosophila genes, 0.25 µg dsRNA per well of a 384-well plate
Duration: 5 days
Challenge: cells persistently infected with Wolbachia before knock-down; no added drug
Measurement: 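Automated imaging of bacterial rRNA staining divided by host cell count, reported as plate-normalised robust z-score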
Reading the numbers: Wolbachia per cell robust z: higher = more Wolbachia per host cell than the plate typical
Rule for the call: 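Active if absolute robust z reaches 1.5 in two or more of three replicates, leaving out multi- or no-target dsRNAs, genes unexpressed in JW18 and A1 wells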

target gene | dsRNA no. | Wolbachia per cell robust z, rep 1 | Wolbachia per cell robust z, rep 2 | Wolbachia per cell robust z, rep 3 | outcome
Atxn7 (Ataxin 7) | 1 | 0.402 | 1.39 | -4.17 | inactive
CG32944 | 1 | 0.241 | 0.981 | -0.435 | inactive
CG32944 | 2 | 0.532 | 0.465 | -0.879 | inactive
CG10338 | 1 | -2.77 | -0.801 | -0.377 | inactive
CG42259 | 1 | -2.42 | -1.51 | -1.96 | active
CG34235 + CG30058 + CG34312 | 1 | -1.24 | -1.06 | 0.0842 | inactive
CG15439 | 1 | 0.276 | 0.104 | 0.958 | inactive
CG15439 | 2 | -3.12 | -0.125 | 0.472 | inactive
CG8927 | 1 | 0.257 | -5.28 | -0.648 | inactive
CG8927 | 2 | 0.43 | -0.0845 | 0.68 | inactive
fit (female-specific independent of transformer) | 1 | -0.641 | 0.723 | 0.54 | inactive
msk (moleskin) | 1 | -6.33 | 1.11 | 0.168 | inactive
msk (moleskin) | 2 | 0.229 | 0.788 | -1.85 | inactive
Mob2 | 1 | -1.3 | 0.981 | 0.571 | inactive
Mob2 | 2 | 0.56 | -0.0139 | -1.16 | inactive
Mob2 | 3 | 1.07 | -0.755 | 0.456 | inactive
Mob2 | 4 | -0.159 | -0.655 | -2.51 | inactive
Ids (Iduronate 2-sulfatase) | 1 | 1.23 | 0.877 | 1.32 | inactive
CG33791 + CG18170 | 1 | -3.45 | -2.57 | -0.892 | inactive
Nprl3 (Nitrogen permease regulator-like 3) | 1 | 0.275 | 0.966 | -0.844 | inactive
Spn31A (Serpin 31A) | 1 | -1.1 | 1.18 | 1.88 | inactive
Spn31A (Serpin 31A) | 2 | 0.214 | -1.26 | -0.635 | inactive
Scgdelta (Sarcoglycan delta) | 1 | -1.45 | -2.45 | 0.0899 | inactive
CG9164 | 1 | 0.639 | -0.0624 | -0.377 | inactive
CG9164 | 2 | -0.974 | -9.39 | 0.603 | inactive
CG9164 | 3 | -9.25 | -0.478 | -1.2 | inactive
Cp16 (Chorion protein 16) | 1 | -0.657 | 1.2 | 1.4 | inactive
Cp16 (Chorion protein 16) | 2 | -0.705 | -1.71 | 0.565 | inactive

Called active (from the list above):
target gene | dsRNA no. | Wolbachia per cell robust z, rep 1 | Wolbachia per cell robust z, rep 2 | Wolbachia per cell robust z, rep 3 | outcome
CG42259 | 1 | -2.42 | -1.51 | -1.96 | active

Further records follow:
target gene | dsRNA no. | Wolbachia per cell robust z, rep 1 | Wolbachia per cell robust z, rep 2 | Wolbachia per cell robust z, rep 3 | outcome
TTLL12 (Tubulin tyrosine ligase-like 12) | 1 | -0.43 | -0.826 | -4.7 | inactive
CG32683 | 1 | -0.0747 | 0.171 | -5.53 | inactive
CG32683 | 2 | -1.19 | -0.75 | 0.304 | inactive
CG32683 | 3 | 0.011 | 0.461 | -0.284 | inactive
CG32683 | 4 | 0.511 | 0.435 | -0.27 | inactive
Dpy-30L2 (Dpy-30-like 2) | 1 | 1.26 | -3.85 | 0.515 | inactive
Dpy-30L2 (Dpy-30-like 2) | 2 | 0.0332 | -0.0328 | 0.32 | inactive
CG2641 | 1 | -0.0938 | -1.09 | -2.39 | inactive
CNBP (CCHC-type zinc finger nucleic acid binding protein) | 1 | -0.048 | -5.66 | -2.27 | active
CNBP (CCHC-type zinc finger nucleic acid binding protein) | 2 | 0.706 | -0.686 | 1.28 | inactive
CNBP (CCHC-type zinc finger nucleic acid binding protein) | 3 | 1.05 | 0.882 | 0.101 | inactive
Mco4 (Multicopper oxidase 4) | 1 | 0.327 | -2.38 | 0.772 | inactive
Mco4 (Multicopper oxidase 4) | 2 | 0.366 | -1.07 | -0.524 | inactive
betaTub97EF (beta-Tubulin at 97EF) | 1 | 0.489 | 0.324 | -4.63 | inactive
betaTub97EF (beta-Tubulin at 97EF) | 2 | 0.78 | -3.61 | 0.531 | inactive
betaTub97EF (beta-Tubulin at 97EF) | 3 | -0.321 | 0.418 | -0.199 | inactive
CG14947 | 1 | 0.219 | 0.117 | 0.651 | inactive
Est-Q (Esterase Q) | 1 | 1 | 1.03 | -0.196 | inactive
